Pooled drug test results. Numbers come from NIAID ChemDB, via PubChem.

Common to all: whole-cell or culture tests; organism: Hepatitis C virus; read-out: EC50

Conditions beyond the fields shown may differ between rows. An empty or dashed field is not shown. ECn: concentration that inhibits the pathogen or its effect by n%.

smiles,strain,mutations,cells,read by,value
CCCCn1cnc2c(c(CC#N)nn2-c2ccccc2)c1=N,JFH-1,-,Huh7-1,PCR,4.2 µM
C[C@@]1(O)[C@H](O)[C@@H](CO)O[C@H]1n1cnc2c(N)ncnc21,genotype 1b,Y93H,Huh7.5,luciferase / reporter gene,0.0292 µM
NC(=O)c1nn(Cc2cccc(NC(=O)c3ccc(F)cc3)c2)c2ccccc12,J399EM,Luciferase reporter gene,Huh7.5.1,luciferase / replicon,0.018 µM
CC(C)OC(=O)[C@H](C)N[P@](=O)(OC[C@H]1O[C@@](C#N)(c2ccc3c(N)ncnn23)[C@](C)(O)[C@@H]1OC(=O)C(C)C)Oc1ccccc1,2a JFH-1,-,Huh7 replicon,luciferase,0.68 µM
C[C@@]1(O)[C@H](O)[C@@H](CO)O[C@H]1n1cnc2c(N)ncnc21,GT 1a-H77,-,Huh7-Lunet,luciferase,0.625 µM
NC(=O)c1nn(Cc2cccc(NC(=O)c3cccc(F)c3)c2)c2ccccc12,J399EM,-,Huh7.5.1,fluorescence,0.238 µM
Cc1cc(N2CCOCC2)nc2ccc(Cc3ccc4nc(N5CCOCC5)cc(C)c4c3)cc12,JFH-1,-,Huh7-1,PCR,3.6 µM
NC(=O)c1nn(Cc2cccc(NC(=O)C3CC3)c2)c2ccccc12,J399EM,-,Huh7.5.1,fluorescence,1.17 µM
CCC[C@H](NC(=O)[C@@H]1[C@H]2CCC[C@H]2CN1C(=O)[C@@H](NC(=O)[C@@H](NC(=O)c1cnccn1)C1CCCCC1)C(C)(C)C)C(=O)C(=O)NC1CC1,1b R155K,-,-,luciferase,3 µM
Fc1ccccc1-c1nc2ccn(Cc3ccc(-c4ccc(C(F)(F)F)cc4C(F)(F)F)nn3)cc-2n1,2a,-,Huh7,luciferase,22.05 µM
CC(=O)OC1CCC2(C)C(CCC3C2CC(=O)C2(C)C3CC(N3CC3)C2C(C)=O)C1,JFH-1,-,Huh7-1,PCR,2.1 µM
CC[C@H]1C[C@]1(NC(=O)[C@@H]1C[C@@H]2CN1C(=O)[C@H](C(C)(C)C)NC(=O)OCC(C)(C)CCCCc1cccc3c1CN(C3)C(=O)O2)C(=O)NS(=O)(=O)C1CC1,J6,-,Huh7.5,antigen,0.04 µM
C[C@@]1(O)[C@H](O)[C@@H](CO)O[C@H]1n1cnc2c(N)ncnc21,1a H77,-,Huh7 replicon,luciferase,0.2 µM
COc1ccc2c(O[C@@H]3C[C@H]4C(=O)N[C@]5(C(=O)NS(=O)(=O)C6CC6)C[C@H]5/C=C\CCCCN(C)C(=O)[C@@H]4C3)cc(-c3nc(C(C)C)cs3)nc2c1C,JFH-1,-,Huh7.5,antigen,0.073 µM
CNC(=O)c1c(-c2ccc(F)cc2)oc2cc(N(CCO)S(C)(=O)=O)c(C3CC3)cc12,3a,-,Huh7,luciferase,0.0298 µM
CO[C@H]1[C@@H](O)[C@@H](C)O[C@H](O[C@H]2[C@H](Oc3cccc4c(O)c5c(=O)oc6ccc(C)c7c(=O)oc(c34)c5c67)O[C@H](C)[C@H](O)[C@@H]2O)[C@@H]1O,sg1a (H77),-,Huh7-1,PCR,1.4 µM
CC1CCC(C(=O)N(c2cc(C#CC(C)(C)C)sc2C(=O)O)C2CCC(O)CC2)CC1,GT2a (JFH1),-,Huh7-Lunet,luciferase,13.9 µM
C[C@@]1(O)[C@H](O)[C@@H](CO)O[C@H]1c1ccc2c(N)ncnn12,GT2a (JFH1),-,Huh7.5,PCR,0.58 µM
NC(=O)c1nn(Cc2ccccc2N)c2ccccc12,J399EM,-,Huh7.5.1,fluorescence,>10 µM
CC(=O)Nc1ccc(-c2ccc(Cl)cc2)c(COc2ccc(-c3nc4cc(C(=O)O)ccc4n3C3CCCCC3)cc2)c1,2a,-,Huh7,luciferase,7.408 µM